Taken from: PubChem BioAssay AID624099 (ICCB-Longwood, 2012)

- Screen: 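Knock-downs relieving repression by E2 of an HPV18 LCR luciferase reporter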 (primary screen)
- Cells: human C33A cervical carcinoma cells (HPV-negative) stably expressing BPV1 E2 and an HPV18 LCR luciferase reporter
- Knock-down reagent: siRNA pool against human genes, 40 nM
- Time to read-out: 72 h
- Measurement: 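Per-well luciferase luminescence, z-scored on each plate against the plate mean and SD with control wells left out, then averaged across three replicate plates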
- Reading the numbers: mean z-score and z-score: higher = stronger reporter signal, weaker E2 silencing
- Active means: 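Mean z ≥ 2 together with z ≥ 2 in two or more of the three replicates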
The whole screen tested about 21,000 reagents; this is a random part of them. In the full data, 497 (2.4%) are marked active. 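Higher z means weaker E2 silencing; only reporter increases were scored, and knock-downs that hurt cell survival may mask genuine repressor factors.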 Entries without a mark were called inactive. Reagents against one gene are numbered here. No sequences are given here.

gene	reagent	mean z-score	z-score, replicate A	z-score, replicate B	z-score, replicate C
RFPL4A	1	0.04	0.2	0.17	-0.27
FAM174A	1	-0.36	0.02	-0.57	-0.54
CNPY2	1	2.09 (active)	1.92	2.25	2.1
HRNR	1	-1.91	-1.51	-2.1	-2.11
FUT4	1	-0.56	-0.58	-0.37	-0.73
LOC389276 (retired record)	1	-0.62	-0.75	-0.57	-0.55
RFPL4B	1	-0.84	-1.05	-0.52	-0.95
NSFL1C	1	-1.76	-1.94	-1.78	-1.56
CLDN8	1	-1.3	-1.41	-1.08	-1.41
CDC40	1	2.98 (active)	3.22	2.95	2.77
KBTBD3	1	-0.26	0.05	-0.2	-0.63
RGSL1	1	0.21	0.38	0.23	0.03
RGSL1	2	-0.55	-0.81	-0.7	-0.16
PCDHB9	1	0.24	0.16	0.18	0.38
GPR108	1	1.51	1.5	1.71	1.31
PROCR	1	2.76 (active)	2.61	2.86	2.81
ACSF3	1	-1.54	-1.2	-1.71	-1.7
LOC387869	1	0.23	0.43	0.37	-0.11
CTDSP1	1	-0.78	-0.69	-1.04	-0.62
KCNT1	1	-0.56	-0.65	-0.39	-0.65
MRTFB	1	-0.29	-0.31	-0.32	-0.22
ZFP57	1	0.76	1.07	0.66	0.56
CYP2J2	1	-0.19	-0.19	-0.12	-0.25
SCN9A	1	-0.52	-0.5	-0.46	-0.59
PHLDB2	1	0.41	0.23	0.42	0.57
ZNF691	1	1.03	0.5	1.25	1.34

Entries listed above marked active (3):
gene	reagent	mean z-score	z-score, replicate A	z-score, replicate B	z-score, replicate C
CNPY2	1	2.09 (active)	1.92	2.25	2.1
CDC40	1	2.98 (active)	3.22	2.95	2.77
PROCR	1	2.76 (active)	2.61	2.86	2.81

Further results:
gene	reagent	mean z-score	z-score, replicate A	z-score, replicate B	z-score, replicate C
TERF2IP	1	0.84	0.58	0.85	1.07
ATAD3C	1	-0.81	-0.89	-0.73	
PPP4R3B	1	0.99	0.88	0.85	1.25
MEIOSIN	1	-0.2	-0.18	-0.26	-0.15
DHCR7	1	1.27	1.04	1.23	1.55
DELEC1	1	0.6	0.66	0.67	0.48
ACY1	1	0.91	0.99	0.66	1.07
ATG4D	1	-1.69	-1.41	-2.02	-1.64
RTL6	1	1.99	1.25	2.83	1.88
QPRT	1	-1.15	-1.24	-1.31	-0.91
FST	1	0.49	0.52	0.49	0.46
PRPF40B	1	-0.1	-0.19	-0.15	0.02
COL15A1	1	0.34	0.32	0.43	0.28
NUCB2	1	-0.01	-0.19	0.21	-0.05
LIN54	1	1.47	1.43	1.65	1.34
CGB2	1	2.3 (active)	2.21	2.39	2.29
CA3	1	-0.57	-0.92	-0.11	-0.67
KRABD1	1	0.12	0.3	0.09	-0.03
KRABD1	2	0.5	0.97	0.35	0.19
CCNB1	1	0.48	0.48	0.38	0.58
CXCL6	1	-0.81	-0.71	-0.85	-0.86
ANKRD13C-DT	1	0.88	0.8	1.09	0.74
HACL2	1	-0.1	-0.08	-0.09	-0.13
PRDM7	1	0.61	0.15	0.31	1.38
MRTFA	1	1.08	0.98	0.99	1.26
MCM5	1	0.37	0.43	0.42	0.25
TANC1	1	-0.1	0.19	-0.15	-0.33
PLA2G6	1	-0.57	-0.72	-0.47	-0.52
SMAD1	1	0.41	0.53	0.44	0.27
CARM1LP	1	0.36	0.44	0.61	0.03
HOXB4	1	0.04	0.05	0.06	0.01
TESPA1	1	0.27	0.14	0.61	0.05
JUN	1	-0.65	-0.77	-0.48	-0.7
ARX	1	0.13	0.1	0.13	0.17
PRPF39	1	-0.54	-0.54	-0.29	-0.8
KCTD9	1	0.23	0.01	0.23	0.45
FZD2	1	2.3 (active)	1.78	2.55	2.58
S100A9	1	0.05	-0.02	0.18	0
NUP93	1	-0.55	-0.27	-0.56	-0.81
URB2	1	1.05	0.8	1.05	1.29
MOCS3	1	-1.17	-1.18	-1.45	-0.87
EHD2	1	-0.08	-0.19	-0.01	-0.04
TOB1	1	0.86	0.72	1	0.85
LMTK2	1	0.82	0.93	0.55	0.96
PYGM	1	-0.4	-0.27	-0.41	-0.52
SEMA4G	1	-0.02	0.13	0.1	-0.28
C2CD2	1	-1.01	-1.01	-1.08	-0.95
C2CD2	2	-0.33	-0.34	-0.27	-0.39
